Pooled drug test results. Numbers come from NIAID ChemDB, via PubChem.

Common to all: tests on isolated targets; species: Hepatitis C virus

Blank or dashed fields: not listed here. Percent inhibition refers to the dose given; in toxicity tests it is the harm to the cells. a–b is a range or a potency band. ICn: concentration for n% inhibition. Rows are shuffled and stem from different studies.

| compound | endpoint | tested at | target | result |
|---|---|---|---|---|
| O=C1NC(=O)C(Cc2cnn3c(C4CCCCC4)c(-c4ccc(OCc5ccccc5)cc4)cnc23)S1 | IC50 |  | RNA-dependent RNA polymerase | >10 µM |
| C/C=C/C(=O)N(CC)c1cc(-c2ccccc2)sc1C(=O)O | IC50 |  | NS3 ATPase | 5–20 µM |
| COc1ccc(CNC(=O)Nc2ccccc2-c2nc(C(=O)O)c(O)c(=O)[nH]2)cc1 | IC50 |  | HCV polymerase | <100 µM |
| O=C(O)c1ccc2c(c1)nc(-c1ccc3nc(-c4ccc(Oc5ccc(Cl)cc5)cc4Cl)ccc3c1)n2C1CCCCC1 | inhibition | 33 µM | NS5B polymerase | 99.19% |
| CS(=O)(=O)c1cccc(-c2ccc(-c3cnc4c(C(=O)O)cnn4c3C3CCCCC3)cc2)c1 | IC50 |  | RNA-dependent RNA polymerase | 1–10 µM |
| COc1ccc(COC(=O)Nc2ccsc2-c2nc(C(=O)O)c(O)c(=O)[nH]2)cc1 | IC50 |  | HCV polymerase | <25 µM |
| COc1cc(Br)c2oc(-c3ccc4cc(-c5nc6cc(C(=O)O)ccc6n5C5CCCCC5)ccc4n3)cc2c1 | inhibition | 33 µM | NS5B polymerase | 98.9% |
| CCN(c1cc2oc(-c3ccc(F)cc3)c(C(=O)NC)c2cc1OC(C)C)S(C)(=O)=O | IC50 |  | Nonstructural protein 5B | ≤0.5 µM |
| O=C(N[C@@H](Cc1cc2ccccc2[nH]1)C(=O)O)c1cc2nc(-c3cccs3)c(C3CCCCC3)c(=O)n2[nH]1 | IC50 |  | RNA-dependent RNA polymerase | 1–10 µM |
| CCCOc1cc2c(C(=O)NC)c(-c3ccc(F)cc3)oc2cc1N(CS(C)(=O)=O)OC | IC50 |  | Nonstructural protein 5B | ≤0.5 µM |
| c1cc(-c2cnc3c(-c4nn[nH]n4)cnn3c2C2CCCCC2)ccc1OC1CCCCC1 | IC50 |  | RNA-dependent RNA polymerase | 1–10 µM |
| Cc1[nH]c2ccccc2c1CC(=O)Nc1cscc1-c1nc(C(=O)O)c(O)c(=O)[nH]1 | IC50 |  | HCV polymerase | <25 µM |
| COc1ccc(-c2cc(-c3ccc(Oc4ccccc4)cc3)nc3cc(C(=O)O)nn23)cc1 | IC50 |  | RNA-dependent RNA polymerase | 1–10 µM |
| O=C(O)c1ccc2cc(NC(=O)c3ccc4c(c3)nc(-c3ccc5nc(-c6ccccc6)cnc5c3)n4C3CCCCC3)ccc2c1 | inhibition | 33 µM | NS5B polymerase | 96.84% |
| Cc1ccccc1S(=O)(=O)Nc1cc(-c2cc3ccccc3o2)sc1C(=O)O | IC50 |  | NS3 ATPase | <5 µM |
| O=C(O)c1ccc2c(c1)nc(-c1ccc3nc(-c4c(O)ccc5ccccc45)ccc3c1)n2C1CCCCC1 | inhibition | 33 µM | NS5B polymerase | 101% |
| Cc1ccccc1S(=O)(=O)Nc1cc(-c2ccc(C(=O)O)cc2)sc1C(=O)OC(C)(C)C | IC50 |  | NS3 ATPase | 5–20 µM |
| COc1ccc(-c2cccc([N+](=O)[O-])c2)c(-c2ccc3cc(-c4nc5cc(C(=O)O)ccc5n4C4CCCCC4)ccc3n2)c1 | inhibition | 33 µM | NS5B polymerase | 98.26% |
| CC(NC(=O)Nc1cscc1-c1nc(C(=O)O)c(O)c(=O)[nH]1)c1nc2ccccc2[nH]1 | IC50 |  | HCV polymerase | <25 µM |
| O=C(O)c1ccc2c(c1)nc(-c1ccc3nc(-c4ccc(-c5ccccc5)cc4)ccc3c1)n2C1CCCCC1 | inhibition | 33 µM | NS5B polymerase | 79.87% |
| CC(=O)N(Cc1ccccc1C)c1cc(-c2ccccc2)sc1C(=O)O | IC50 |  | NS3 ATPase | >20 µM |
| O=C(O)c1cc2nc(-c3ccc(OCc4ccccc4)cc3)c(Cc3ccccc3)c(=O)n2[nH]1 | IC50 |  | RNA-dependent RNA polymerase | 1–10 µM |
| O=C(O)c1ccc2c(c1)nc(-c1ccc3nc(-c4cnccn4)ccc3c1)n2C1CCCCC1 | inhibition | 100 µM | NS5B polymerase | 98.23% |
| CCOC(=O)c1cnn2c(-c3ccccc3)c(-c3ccc(Oc4ccccc4)cc3)cnc12 | IC50 |  | RNA-dependent RNA polymerase | >10 µM |
| Cc1cccc(-c2nc(C(=O)O)c(O)c(=O)[nH]2)c1 | IC50 |  | HCV polymerase | <100 µM |
| O=C(O)c1cc2nc(-c3cccs3)cc(C(F)(F)F)n2n1 | IC50 |  | RNA-dependent RNA polymerase | >10 µM |
| Cc1cc(C)c(C(=O)N(c2cc(-c3ccccc3)sc2C(=O)O)C(C)C)c(C)c1 | IC50 |  | NS3 ATPase | 5–20 µM |
| O=C(O)c1ccc2c(c1)nc(-c1cc3ccc(-c4ccccc4-c4ccccc4)nc3cc1F)n2C1CCCCC1 | inhibition | 33 µM | NS5B polymerase | 98.73% |
| CNC(=O)c1c(-c2ccc(F)cc2)oc2cc(N(C)S(C)(=O)=O)c(OCc3cc(C)on3)cc12 | IC50 |  | Nonstructural protein 5B | ≤0.5 µM |
| O=C(Nc1ccsc1-c1nc(C(=O)O)c(O)c(=O)[nH]1)OC1CCCCC1 | IC50 |  | HCV polymerase | <25 µM |
| Cc1ccc(C(=O)N(Cc2ccccc2Cl)c2cc(-c3ccccc3)sc2C(=O)O)cc1 | IC50 |  | NS3 ATPase | <5 µM |
| CCOc1cc(F)ccc1-c1oc2cc(-c3c(C)noc3C)c(OC)cc2c1C(=O)NC | IC50 |  | Nonstructural protein 5B | ≤0.5 µM |
| Cn1c(C(=O)Nc2ccsc2-c2nc(C(=O)O)c(O)c(=O)[nH]2)cnc1Sc1ncc(C(F)(F)F)cc1Cl | IC50 |  | HCV polymerase | <25 µM |
| Cc1ccc(C(=O)N(Cc2ccc(Cl)cc2)c2cc(-c3ccccc3)sc2C(=O)O)cc1 | IC50 |  | NS3 ATPase | <5 µM |

For reference, 4 entries again:

compound | endpoint | tested at | target | result
O=C(O)c1ccc2cc(NC(=O)c3ccc4c(c3)nc(-c3ccc5nc(-c6ccccc6)cnc5c3)n4C3CCCCC3)ccc2c1 | inhibition | 33 µM | NS5B polymerase | 96.84%
COc1ccc(-c2cc(-c3ccc(Oc4ccccc4)cc3)nc3cc(C(=O)O)nn23)cc1 | IC50 |  | RNA-dependent RNA polymerase | 1–10 µM
Cc1[nH]c2ccccc2c1CC(=O)Nc1cscc1-c1nc(C(=O)O)c(O)c(=O)[nH]1 | IC50 |  | HCV polymerase | <25 µM
CC(=O)N(Cc1ccccc1C)c1cc(-c2ccccc2)sc1C(=O)O | IC50 |  | NS3 ATPase | >20 µM